Data on five molecules can be found in article PMC9981719, “A novel designed membrane-active peptide for the control of foodborne Salmonella enterica serovar Typhimurium” (Scientific Reports, 2023).

Where no end group is shown, it is not given here.

Data set [1] has as its system all Gram-negative strains. Put plainly: Geometric mean of MICs and therapeutic index, Gram-negative strains. To be noted: MHC > 250 taken as 500 µg/ml, < 0.98 as 0.49 µg/ml. Format: cell-based. From the text:
(§1) All tests were done in triplicate.

Data set [2] has as its system all Gram-positive strains. The data set is described as follows: Geometric mean of MICs and therapeutic index, Gram-positive strains. The format is cell-based. To be noted: MHC > 250 taken as 500 µg/ml, < 0.98 as 0.49 µg/ml.
From the text: as §1

As for WVKKVARKVVKIGRKVAR-NH2 [A11], the “TI (Gr.- strains), ratio of the MHC to the geometric mean of MICs from Gram-negative strains” value (shortened to “TI (Gr.- strains), ratio of the MHC”) in data set [1] was 22.62. Besides, in data set [2], the “TI (Gr. + strains), ratio of the MHC to the geometric mean of MICs from all Gram-positive strains” value (shortened to “TI (Gr. + strains), ratio of the MHC”) was determined as 6.35.

Consider GVKKVAHKVVKIGRKVAW-NH2 [A6], for which the “TI (Gr.- strains), ratio of the MHC” value in data set [1] amounted to 8. Moreover, the “TI (Gr. + strains), ratio of the MHC” value in data set [2] stood at 1.00.

For GVKKVAHKVVKIGRKVAWGAVSGV-NH2 [A4], the “TI (Gr.- strains), ratio of the MHC” value in data set [1] is given as 11.31. In addition, the “TI (Gr. + strains), ratio of the MHC” value in data set [2] was found to be 1.00.

As to GVKKVARKVVKIGRKVAR-NH2 [A9], in data set [1], the “TI (Gr.- strains), ratio of the MHC” value stood at 5.66. Moreover, in data set [2], the “TI (Gr. + strains), ratio of the MHC” value is listed as 4.00.

On to `CC[C@H](C)[C@H](NC(=O)CN)C(=O)NCC(=O)N[C@@H](C)C(=O)N[C@H](C(=O)N[C@@H](CC(C)C)C(=O)N[C@@H](CCCCN)C(=O)N[C@H](C(=O)N[C@@H](CC(C)C)C(=O)N[C@H](C(=O)N[C@H](C(=O)NCC(=O)N[C@@H](CC(C)C)C(=O)N1CCC[C@H]1C(=O)N[C@@H](C)C(=O)N[C@@H](CC(C)C)C(=O)N[C@H](C(=O)N[C@@H](CO)C(=O)N[C@@H](Cc1c[nH]c2ccccc12)C(=O)N[C@H](C(=O)N[C@@H](CCCCN)C(=O)N[C@@H](CCCNC(=N)N)C(=O)N[C@@H](CCCCN)C(=O)N[C@@H](CCCNC(=N)N)C(=O)N[C@@H](CCC(N)=O)C(=O)N[C@@H](CCC(N)=O)C(N)=O)[C@@H](C)CC)[C@@H](C)CC)[C@@H](C)O)[C@@H](C)O)C(C)C)C(C)C` [Melittin, reference compound], for which, in data set [1], the “TI (Gr.- strains), ratio of the MHC” value worked out at 0.07. Moreover, the “TI (Gr. + strains), ratio of the MHC” value in data set [2] was 0.13.
